Experimental data: patent US20220273678A1 (priority 2020, published 2022)
Entries after “also recorded” stand apart in the source; their conditions may differ.

Tested on: Calu3 cells
Test: XTT cell cytotoxicity assay in uninfected Calu3 cells
Format: cell-based, human
Details: 0.25 μM brusatol, 24 h
Method: To measure cell viability to determine if there was any treatment-induced cytotoxicity, cells were plated and treated with drugs as described above. Cells were exposed to the same dilution series created for the in vitro efficacy studies. As above, vehicle-treated cells served as the 0% cytotoxicity control. After 24 h, cell viability was measured on a Synergy 2 Biotek microplate reader (Biotek Inc) via the XTT Cell Proliferation Assay Kit (ATCC® 30-1011K™) according to the manufacturer's protocol. Similar data were obtained in three independent experiments.

brusatol was tested, and the “cytotoxicity, XTT cell cytotoxicity assay” value was “non-cytotoxic; also recorded: cytotoxic”.
